Test [1] has as its target T1, BKV serotype I VP1 pentamer (BK virus serotype I, UniProt P03088 30-297).
T1 construct: also called serotype I pentamers; BKV-VP1 serotype I pentameric protein
T1 chain: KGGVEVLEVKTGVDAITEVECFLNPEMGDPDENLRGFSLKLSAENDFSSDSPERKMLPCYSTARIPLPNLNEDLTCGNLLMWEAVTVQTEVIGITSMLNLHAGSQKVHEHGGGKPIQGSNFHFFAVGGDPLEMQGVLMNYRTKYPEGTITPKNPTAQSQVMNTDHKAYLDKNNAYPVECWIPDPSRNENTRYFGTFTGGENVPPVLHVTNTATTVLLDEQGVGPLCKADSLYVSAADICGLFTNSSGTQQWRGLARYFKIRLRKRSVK
Briefly: SET (solution equilibrium titration) on VP1 pentamers.

The target in test [2] is T2, BKV serotype IV VP1 pentamer (BK virus serotype IV, UniProt P14996 30-297).
T2 construct: also called serotype IV pentamers
T2 chain: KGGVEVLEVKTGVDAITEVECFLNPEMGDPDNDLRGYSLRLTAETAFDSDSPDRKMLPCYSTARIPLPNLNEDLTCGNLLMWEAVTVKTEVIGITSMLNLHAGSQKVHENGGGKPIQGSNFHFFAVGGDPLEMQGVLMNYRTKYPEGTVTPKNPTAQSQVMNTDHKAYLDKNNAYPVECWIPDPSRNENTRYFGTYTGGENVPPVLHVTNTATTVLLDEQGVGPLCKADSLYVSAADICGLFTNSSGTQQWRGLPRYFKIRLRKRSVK
Described as above.

In test [3] the target is T3, JCV L55F mutant VLP (JC virus, UniProt P03089 1-354). The experiment in a line: SET assay.
For test [4], the target named is T3, JCV L55F mutant VLP. Briefly: SET (solution equilibrium titration) on JCV VLPs.
The target of test [5] is JCV S269F mutant VLP (JC virus, UniProt P03089 1-354). The experiment in a line: SET (solution equilibrium titration) on JCV VLPs.
The target of test [6] is T4, BKV serotype III VP1 pentamer (BK virus serotype III, UniProt P14996 30-297).
T4 construct: also called serotype III pentamers
T4 chain: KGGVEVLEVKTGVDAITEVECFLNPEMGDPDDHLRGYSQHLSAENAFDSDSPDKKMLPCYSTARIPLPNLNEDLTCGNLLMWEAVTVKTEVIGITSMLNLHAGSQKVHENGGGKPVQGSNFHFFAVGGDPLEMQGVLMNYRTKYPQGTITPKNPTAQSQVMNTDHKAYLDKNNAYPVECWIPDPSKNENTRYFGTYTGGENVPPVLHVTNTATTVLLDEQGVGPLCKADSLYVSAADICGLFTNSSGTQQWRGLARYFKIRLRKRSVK
Briefly: SPR, antibody captured on Protein A. (Surface plasmon resonance follows binding to a sensor surface in real time, without labels.)

For test [7], the target named is T1, BKV serotype I VP1 pentamer. Briefly: SPR, antibody captured on Protein A.
In test [8] the target is T2, BKV serotype IV VP1 pentamer. The experiment in a line: ELISA on coated BKV serotype IV VP1 pentamers. Background: An ELISA detects its analyte on a solid surface through an enzyme-linked reagent.
Test [9] deals with T5, BKV serotype III VLP (BK virus serotype III, UniProt P14996 1-362).
T5 construct: also called serotype III VLPs
T5 chain: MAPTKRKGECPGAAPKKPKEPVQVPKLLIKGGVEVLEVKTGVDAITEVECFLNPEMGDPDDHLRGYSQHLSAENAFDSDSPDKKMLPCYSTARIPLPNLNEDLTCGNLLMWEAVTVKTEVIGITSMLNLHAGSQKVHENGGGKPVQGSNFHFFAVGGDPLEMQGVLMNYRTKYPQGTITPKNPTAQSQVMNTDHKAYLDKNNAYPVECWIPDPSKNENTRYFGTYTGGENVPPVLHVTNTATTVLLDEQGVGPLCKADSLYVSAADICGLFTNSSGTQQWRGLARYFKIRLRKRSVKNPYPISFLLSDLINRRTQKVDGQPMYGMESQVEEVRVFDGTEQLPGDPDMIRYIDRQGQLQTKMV
The experiment in a line: SPR (Biacore): antibody captured via Protein A, VLPs flowed over; concentrations not given.

Positions count from the first letter of the chain named.

B1: P7G11 (antibody, human IgG1, lambda, V domains shown)
VH: QVQLQESGPGLAKPSQTLSLTCSVSGGSISSGGYSWSWIRQPPGKGLEYIGYIYYRGTTYYNPSLKSRITMSVDTSNNQISLKLTSVTAADTAVYYCARALTHLVGVGWFDPWGQGTMVTVSS
VL: QSVLTQPPSVSAAPGQKVTISCSGGSSNLGSNYVSWYQQLPGTAPKLLIYDNNKRPSGIPDRFSGSKSGTSATLGITGLQTGDEADYYCGTWDGSLSAWVFGGGTKVTVLG
In general, Kd refers to the equilibrium constant for the complex coming apart. A high value points to a looser complex. The molecule B1 yielded a Kd in test [1] of 0.0042 nM.

B2: NEG447A (antibody, human IgG1, lambda, V domains shown)
VH: QVQLQESGPGLVKPSETLSLTCTVSGGSISRDYWSWVRQPPGAGLEWIGNIYYSGSTNYNPSLKSRVTISVATNKKQFSLKLTSVTAADTAVYYCARVPGCSSTSCIDGWFDPWGQGILVTVSS
VL: B1 VL with G25S, L29I, S31N, N32T, G94S, K106R, V107L
On to B2, for which the Kd in [2] was determined as 0.185 nM.

B3: P8D11 (antibody, human IgG1, lambda)
heavy: not shown
light: QSVLTQPPSVSVAPGKTARITCGGDNIGSRPVHWYQQKPGQAPILVVYDDSNRPSGIPERFSGSNSGNTATLTISRVEAGDEADYYCQVWSSSTDHPFGGGTKVTVLGQPKAAPSVTLFPPSSEELQANKATLVCLISDFYPGAVTVAWKADSSPVKAGVETTTPSKQSNNKYAASSYLSLTPEQWKSHRSYSCQVTHEGSTVEKTVAPTECS
Regarding B3, in test [3], the “fold lower affinity (against wild type (consensus) and S269F mutant VLPs)” value is about 2 fold. The Kd is 0.933 nM in test [4] and 0.327 nM in test [5].

B4: EBB-C1975-E7 (antibody, human IgG1, kappa, V domains shown)
VH: EVQLLESGGGLVRPGGSLRVSCAASGFTVSRNYMSWVRQAPGKGLEWVSGIYGGGRTYYAESVKGRFTISRDYSKNTLFLQMNTLRVEDTALYFCAREDEFWSGYSAGVDWGQGTLVTVSS
VL: DIQVTQSPSSLSASVGDRVTITCRASQSISSYLNWYQQEPGKAPKLLIYAASTLQTGVPSRFSGSGSGTDFTLTISSLQPEDFATYYCQQSYNTPRTFGQGTKVEIKR
The IC50 is the concentration at which inhibition is half-maximal. Higher therefore signals lower potency. With B4, the binding result in test [6], in test [7] and in [9] was “no binding” each time. Half-maximal inhibition in test [8] (IC50) was put at 0.026 nM.

B5: EBB-C1975-A3 (antibody, V domains shown)
VH: B4 VH with L5V, S7T, R13Q, V20L, S30R, G53S, R56S, E61D, F79S, L92V
VL: not shown
Take B5: the binding result in [6], in test [7] and in test [9] was “no binding” each time.

B6: EBB-C1975-A7 (antibody, V domains shown)
VH: B4 VH with E1Q, L5V, R13Q, V20L, G53S, R56S, E61D, F79S, L92V
VL: not shown
Regarding B6, the binding result in test [6] and in test [9] was “no binding” in each case.

Source of the values: US20170088605A1 (Novartis, published 2017).
